Test results: publication PMC11617668, “Developing Allosteric Inhibitors of SARS‐CoV‐2 RNA‐Dependent RNA Polymerase” (Chemmedchem, 2024)

System: SARS‐CoV‐2
Settings: […]

SMILES	EC50
FC(F)(F)c1cccc(Nc2nc3cc(Cl)c(Cl)cc3[nH]2)c1 [Compound 56, 5,6‐Dichloro‐N‐(3‐(Trifluoromethyl)phenyl)‐1H‐Benzo[d]imidazol‐2‐Amine]	lost the antiviral activity almost completely
O=C(Nc1cccc(C(F)(F)F)c1)Nc1nc2cc(Cl)c(Cl)cc2[nH]1 [Compound 59, 1‐(5,6‐Dichloro‐1H‐Benzo[d]imidazol‐2‐yl)‐3‐(3‐(Trifluoromethyl)phenyl)urea]	lost the antiviral activity almost completely
